Pooled drug test results. Numbers come from NIAID ChemDB, via PubChem.

All rows: toxicity to cultured cells; cells: VERO; read by: MTT; read-out: CC50

CCn is the concentration with n% toxicity to the cells.

structure,value
O=c1[nH]c(=O)n([C@H]2C[C@H](O)[C@@H](CO)O2)cc1C#CC#Cc1ccc2c3cccc4cccc(c5cccc1c52)c43,>20 µM
c1ccc(Oc2ccc(-c3nnc(-c4cccnc4)o3)cc2)cc1,91.4 µg/mL
CC(C)=CCCC1(C)C=Cc2c(O)c(C(=O)/C=C/c3cc(C=O)ccc3O)cc(CC=C(C)C)c2O1,88.6 µM
COc1ccc(C(=O)/C=C/c2cc3ccc(Cl)c(C)c3nc2Cl)cc1,31.9 µM
Cn1cnc2c(NC(=O)c3ccc(C(F)(F)F)cc3)nc(Cl)cc21,162 µM
Cc1c(Cl)ccc2cc(/C=C/C(=O)c3ccccc3Br)c(Cl)nc12,52.01 µM
Cc1cc(NC(=O)NC2C3CC4CC(C3)CC2C4)no1,>48 µg/mL
O=C(O)c1c2n(c3cc(N4CCSCC4)c(F)cc3c1=O)CS2,177 µM
O=C(O)c1c2n(c3cc([N+](=O)[O-])c(N4CCC(n5c(=O)[nH]c6ccc(Cl)cc65)CC4)cc3c1=O)CS2,188 µM
C[C@H](CCCC(C)(C)C)C1CCC2C3C[C@H](COS(=O)(=O)O)C4C[C@H](OS(=O)(=O)O)[C@@H](OS(=O)(=O)O)C[C@]4(C)C3CC[C@@]21C.[Na+].[Na+].[Na+],11.89 µg/mL
COc1cc2c(cc1OC)C1=NN(C(=O)Nc3ccc([N+](=O)[O-])cc3)C(c3ccccc3)C1C2,51.08 µM
CC[C@]1(C)C[C@@H](OC(=O)CSC(C)(C)CNC(=O)[C@H](N)CC(C)C)[C@]2(C)[C@H](C)CC[C@]3(CCC(=O)[C@H]32)[C@@H](C)[C@@H]1O,5.26 µg/mL
O=C(O)c1c2n(c3cc(F)c(N4CCC(O)(c5ccc(Cl)cc5)CC4)cc3c1=O)CS2,135.6 µM
CCOC(=O)Sc1nsc(-c2ccccc2)c1C#N,5.8 µg/mL
O=C(N/N=C/c1cccc2ccccc12)c1ccc(Oc2ccccc2)cc1,72.2 µg/mL
COc1cc2c(cc1OC)C1=NN(C(=O)Nc3ccc([N+](=O)[O-])cc3)C(c3ccncc3)C1C2,68 µM
O=C(O)c1c2n(c3cc(N4CCN(Cc5ccc6c(c5)OCO6)CC4)c(F)cc3c1=O)CS2,>133 µM
CC[C@]1(C)C[C@@H](OC(=O)CSC(C)(C)CNC(=O)[C@H](N)CC(C)C)[C@]2(C)[C@H](C)CC[C@]3(CC/C(=N\OC)[C@H]32)[C@@H](C)[C@@H]1O,5 µg/mL
O=c1[nH]c(=O)n([C@@H]2O[C@H](CO)[C@@H](O)[C@H]2O)cc1-n1cc(-c2ccccc2)nn1,>20 µM
CC1CN(c2cc3c(cc2F)c(=O)c(C(=O)O)c2n3CS2)CC(C)O1,>172 µM
O=C(O)c1c2n(c3cc([N+](=O)[O-])c(N4CCN(Cc5ccc6c(c5)OCO6)CC4)cc3c1=O)CS2,126 µM
C=C[C@]1(C)C[C@@H](OC(=O)CSC(C)(C)CNC(=O)[C@H](N)CC(C)C)[C@]2(C)[C@H](C)CC[C@]3(CC/C(=N\OC)[C@H]32)[C@@H](C)[C@@H]1O,3.13 µg/mL
CCOC(=O)c1ccc(OCCC2CCN(c3ccc(C)nn3)CC2)cc1,7 µg/mL
CC[C@H](/C=C/[C@@H](C)[C@H]1CC[C@H]2[C@@H]3CC=C4C[C@@H](O)CC[C@]4(C)[C@H]3CC[C@]12C)C(C)C,479 µM
CC(C)(C)OC(=O)NC1C2CN(c3cc4c(cc3F)c(=O)c(C(=O)O)c3n4CS3)CC21,140 µM
CC(C)=CCCC1(C)C=Cc2ccc(O)c(C(=O)/C=C/c3ccc(O)c(C=O)c3)c2O1,31.7 µM
CC[C@@H](C(C)C)[C@@H](O)[C@H](O)[C@@H](C)[C@H]1CC[C@H]2[C@@H]3CC(=O)[C@@]4(O)C[C@@H](Br)CC[C@]4(C)[C@H]3CC[C@]12C,23 µM
O=C(O)c1c2n(c3cc(F)c(N4CCC5(CC4)OCCO5)cc3c1=O)CS2,>159 µM
NNC(=O)c1ccc(Oc2ccccc2)cc1,80.7 µg/mL
Cc1ccc(/C=C/c2cc3ccc(Cl)c(C)c3nc2Cl)s1,39.9 µM
O=C(O)c1c2n(c3cc(F)c(N4CCSCC4)cc3c1=O)CS2,177 µM
O=c1[nH]c(=O)n([C@H]2C[C@H](O)[C@@H](CO)O2)cc1-n1cc(-c2ccc3c4cccc5cccc(c6cccc2c63)c54)nn1,>20 µM
Cn1cnc2c(NC(=O)c3cccc(C(F)(F)F)c3)nc(Cl)cc21,183 µM
O=C(O)c1c2n(c3cc(N4CCC(N5CCCCC5)CC4)c([N+](=O)[O-])cc3c1=O)CS2,141 µM
CC[C@@H](C(C)C)[C@@H](O)[C@H](O)[C@@H](C)[C@H]1CC[C@H]2[C@@H]3CC(=O)[C@H]4C[C@@H](Br)CC[C@]4(C)[C@H]3CC[C@]12C,248 µM
O=c1[nH]c(=O)n([C@H]2C[C@H](O)[C@@H](CO)O2)cc1-n1cc(-c2cc3cccc4c5cccc6cccc(c(c2)c34)c65)nn1,>20 µM
COc1ccc(C(=O)/C=C/c2cc3ccc(Cl)c(C)c3nc2Cl)cc1OC,27.31 µM
Cc1noc(-c2nc(C)c3c(c2N)C(=O)N(Cc2cccc(Cl)c2)C3=O)n1,>100 µM
CC[C@]1(C)C[C@@H](OC(=O)CSC(C)(C)CNC(=O)[C@H](N)CC(C)C)[C@]2(C)[C@H](C)CC[C@]3(CCC(O)[C@H]32)[C@@H](C)[C@@H]1O,10.45 µg/mL
COc1cc2c(cc1OC)C1=NN(C(N)=O)C(c3ccc(F)cc3)C1C2,177 µM
N[C@H](Cc1ccc(-c2ccccc2)cc1)C(=O)O,>400 µM
COc1ccc(C(=O)/C=C/c2cc3ccc(Cl)c(C)c3nc2Cl)c(Br)c1,39.99 µM
CCOS(=O)c1nsc(-c2ccc(OCc3ccccc3)cc2)c1C#N,3.96 µg/mL

Repeating the final 3 entries:

structure,value
N[C@H](Cc1ccc(-c2ccccc2)cc1)C(=O)O,>400 µM
COc1ccc(C(=O)/C=C/c2cc3ccc(Cl)c(C)c3nc2Cl)c(Br)c1,39.99 µM
CCOS(=O)c1nsc(-c2ccc(OCc3ccccc3)cc2)c1C#N,3.96 µg/mL

Conditions beyond the fields shown may differ between rows.